Results of unrelated studies side by side (data: NIAID ChemDB).

Shared fields: growth or infection tests; species: Aspergillus fumigatus

A number after MIC or MFC names an inhibition level or a share of isolates.

compound	strain	measure	read by	value
CCC(C)n1ncn(-c2ccc(N3CCN(c4ccc(OC[C@H]5CO[C@](Cn6cncn6)(c6ccc(Cl)cc6Cl)O5)cc4)CC3)cc2)c1=O	H11-20	MIC	-	0.035 µg/mL
COc1ccc(N2C(=O)CC(c3c(C)nn(-c4ccc(C)cc4)c3Cl)C3=C2CC(C)(C)CC3=O)cc1	MTCC 3008	MIC	broth dilution	1000 µg/mL
O=C1C=CC[C@H](/C=C/c2ccccc2)O1	-	MIC	broth dilution	>100 µg/mL
CC(=O)c1cn([C@@H]2O[C@H]([C@H](NC(=O)[C@@H](N)[C@H](C)[C@H](O)c3ccc(O)cn3)C(=O)O)[C@@H](O)[C@H]2O)c(=O)[nH]1	FP1305	MIC	broth dilution	>50 µg/mL
Nc1ncccc1-c1cc(Cc2ccc(COc3ccccn3)cc2)no1	IFM 51126	MIC50	broth dilution	0.03 µg/mL
CCc1nn([C@H](C)[C@](O)(Cn2cncn2)c2ccc(F)cc2F)c2ccc(F)cc12	ATCC 16424	MIC80	-	16 µg/mL
C=C(Cl)CN1C[C@H](OCC23C[C@@H]4[C@H](C)CC[C@H]4C4(C=O)CC2C=C(C(C)C)C34C(=O)O)O[C@H](C)C1	-	MIC	-	16 µg/mL
CN(Cc1cccc2ccsc12)/N=C\c1ccc(C(C)(C)c2ccccc2)cc1	-	MIC	-	>64 µg/mL
Cc1nn(-c2ccccc2)c(Cl)c1C1CC(=O)N(c2ccc(F)cc2)C2=C1C(=O)CC(C)(C)C2	MTCC 3008	MIC	broth dilution	1000 µg/mL
CCCCC/C=C/C=N\N(C)Cc1cccc2ccccc12	-	MIC	-	>64 µg/mL
OC(Cn1cncn1)(Cn1cncn1)c1ccc(F)cc1F	25 isolates	MIC90	-	>128 µg/mL
CN(Cc1cccc2ccccc12)/N=C\C=C\c1ccccc1	-	MIC	-	>64 µg/mL
COc1ccc(N2C(=O)CC(c3c(C)nn(-c4ccccc4)c3Cl)C3=C2CC(C)(C)CC3=O)cc1	MTCC 3008	MIC	broth dilution	1000 µg/mL
CC(=O)N1CCN(c2ccc(OC[C@H]3CO[C@](Cn4ccnc4)(c4ccc(Cl)cc4Cl)O3)cc2)CC1	25 isolates	MIC90	-	4 µg/mL
C[C@@H]1[C@@H](COCC(=O)O)C[C@@H](O[C@H]2[C@H](O)[C@@H](N(Cc3ccc([N+](=O)[O-])cc3)CC(O)C[N+](C)(C)C)[C@H](O[C@H]3[C@H](O)[C@@H](N(Cc4ccc([N+](=O)[O-])cc4)CC(O)C[N+](C)(C)C)[C@H](C)O[C@@H]3COCC(=O)O)O[C@@H]2COCC(=O)O)[C@H](N(Cc2ccc([N+](=O)[O-])cc2)CC(O)C[N+](C)(C)C)[C@H]1O	RCMB 02568	MIC	broth dilution	11.25 µg/mL
COc1ccc(N2C(=O)CC(c3c(C)nn(-c4cccc(Cl)c4)c3Cl)C3=C2CC(C)(C)CC3=O)cc1	MTCC 3008	MIC	broth dilution	1000 µg/mL
CCC(C)CC(C)CCCCCCCCC(=O)N[C@H]1C[C@@H](O)[C@H](NCCN)NC(=O)[C@@H]2[C@@H](O)CCN2C(=O)[C@H]([C@H](O)CCN)NC(=O)[C@H]([C@H](O)[C@@H](O)c2ccc(O)cc2)NC(=O)[C@@H]2C[C@@H](O)CN2C(=O)[C@H]([C@@H](C)O)NC1=O	71 strains	MIC	-	0.53 µg/mL
C/C=C/CN=C(N)NCCCCCCCN1CCCCCCCCN=C(N)NC1=O	-	MIC50	-	73 µM
C[C@H]1[C@H](O)[C@@H](C)/C=C/C=C/C=C/C=C/C=C/C=C/C=C/[C@H](O[C@@H]2O[C@H](C)[C@@H](O)[C@H](N)[C@@H]2O)C[C@@H]2O[C@](O)(C[C@@H](O)C[C@@H](O)CC[C@H](O)[C@@H](O)C[C@@H](O)CC(=O)O[C@H]1C)C[C@H](O)[C@H]2C(=O)O	-	MIC50	-	0.39 µg/mL
Cc1nn([C@H](C)[C@](O)(Cn2cncn2)c2ccc(F)cc2F)c2cc(F)ccc12	ATCC 16424	MIC80	-	16 µg/mL
CCC(CC)n1ncn(-c2ccc(N3CCN(c4ccc(OC[C@@H]5CO[C@@](Cn6cncn6)(c6ccc(F)cc6F)C5)cc4)CC3)cc2)c1=O	H11-20	MIC	-	0.035 µg/mL
c1ccc(-c2ccc(C(c3ccccc3)n3ccnc3)cc2)cc1	ATCC 9142	MFC	broth dilution	200 µg/mL
COc1cc(O)c2c(c1)C(=O)c1c(cc3c(c1O)-c1c(cc(C)c(C(=O)NC(CO)C(=O)O)c1O)[C@H](OC1OC(C)C(O)C(OC4OCC(O)C(O)C4O)C1O)C3O)C2=O	35 strains	Geometric mean MIC	-	7.99 µg/mL
C[C@@H]1[C@H](O)[C@@H](C)/C=C/C=C/C=C/C=C/C=C/C=C/C=C/[C@H](O[C@@H]2O[C@H](C)[C@@H](O)[C@H](N)[C@@H]2O)C[C@@H]2O[C@](O)(C[C@@H](O)C[C@@H](O)[C@H](O)CC[C@@H](O)C[C@@H](O)CC(=O)O[C@H]1C)C[C@H](O)[C@H]2C(=O)O	IP 2279.94	MIC	broth dilution	0.5 µg/mL
Cc1ccc(-n2nc(C)c(C3CC(=O)N(c4ccc(F)cc4)C4=C3C(=O)CCC4)c2Cl)cc1	MTCC 3008	MIC	broth dilution	500 µg/mL
CN1CCN(c2n[nH]c(N3C(=O)CS[C@@H]3c3ccc(Cl)cc3)n2)CC1	168.95	MIC	broth dilution	100 µg/mL
COc1ccc(N2C(=O)CC(c3c(C)nn(-c4cccc(Cl)c4)c3Cl)C3=C2CCCC3=O)cc1	MTCC 3008	MIC	broth dilution	1000 µg/mL
Cc1nn([C@H](C)[C@](O)(Cn2cncn2)c2ccc(F)cc2F)c2cccc(F)c12	ATCC 16424	MIC80	-	16 µg/mL
Cc1ccc(C(C)C)cc1	F05	MIC	-	>20 µg/mL
CCC(C)n1ncn(-c2ccc(N3CCN(c4ccc(OC[C@H]5CO[C@](Cn6cncn6)(c6ccc(Cl)cc6Cl)O5)cc4)CC3)cc2)c1=O	3 clinical isolates	MIC50	-	1 µg/mL
C[C@@H]1[C@@H](COCC(=O)O)C[C@@H](O[C@H]2[C@H](O)[C@@H](N(Cc3ccc(O)cc3)CC(O)C[N+](C)(C)C)[C@H](O[C@H]3[C@H](O)[C@@H](N(Cc4ccc(O)cc4)CC(O)C[N+](C)(C)C)[C@H](C)O[C@@H]3COCC(=O)O)O[C@@H]2COCC(=O)O)[C@H](N(Cc2ccc(O)cc2)CC(O)C[N+](C)(C)C)[C@H]1O	RCMB 02568	MIC	broth dilution	55 µg/mL
CCC(C)n1ncn(-c2ccc(N3CCN(c4ccc(OC[C@H]5CO[C@](Cn6cncn6)(c6ccc(Cl)cc6Cl)O5)cc4)CC3)cc2)c1=O	94 isolates	MFC90	-	4 µg/mL
CN(Cc1cccc2ccsc12)/N=C\c1ccccc1	-	MIC	-	>64 µg/mL
CCC(C)n1ncn(-c2ccc(N3CCN(c4ccc(OC[C@H]5CO[C@](Cn6cncn6)(c6ccc(Cl)cc6Cl)O5)cc4)CC3)cc2)c1=O	-	MLC50	-	2 µg/mL
C[C@H]1[C@H](O)[C@@H](C)/C=C/C=C/C=C/C=C/C=C/C=C/C=C/[C@H](O[C@@H]2O[C@H](C)[C@@H](O)[C@H](N)[C@@H]2O)C[C@@H]2O[C@](O)(C[C@@H](O)C[C@@H](O)CC[C@H](O)[C@@H](O)C[C@@H](O)CC(=O)O[C@H]1C)C[C@H](O)[C@H]2C(=O)O	314 isolates	MIC50	-	0.25 µg/mL
C[C@@H](n1cc2cc(Cl)ccc2n1)[C@](O)(Cn1cncn1)c1ccc(F)cc1F	ATCC 16424	MIC80	-	0.25 µg/mL
CN1CCN(c2n[nH]c(N3C(=O)CS[C@@H]3c3ccc4c(c3)OCO4)n2)CC1	119	MIC80	broth dilution	3.12 µg/mL
COc1ccc(CN(CC(O)C[N+](C)(C)C)[C@@H]2[C@@H](O)[C@H](O[C@@H]3O[C@H](COCC(=O)O)[C@@H](O[C@@H]4C[C@H](COCC(=O)O)[C@@H](C)[C@H](O)[C@H]4N(Cc4ccc(OC)cc4)CC(O)C[N+](C)(C)C)[C@H](O)[C@H]3N(Cc3ccc(OC)cc3)CC(O)C[N+](C)(C)C)[C@@H](COCC(=O)O)O[C@H]2C)cc1	RCMB 02568	MIC	broth dilution	100 µg/mL

4 of the rows above, restated:

compound | strain | measure | read by | value
CCC(C)n1ncn(-c2ccc(N3CCN(c4ccc(OC[C@H]5CO[C@](Cn6cncn6)(c6ccc(Cl)cc6Cl)O5)cc4)CC3)cc2)c1=O | 3 clinical isolates | MIC50 | - | 1 µg/mL
COc1ccc(CN(CC(O)C[N+](C)(C)C)[C@@H]2[C@@H](O)[C@H](O[C@@H]3O[C@H](COCC(=O)O)[C@@H](O[C@@H]4C[C@H](COCC(=O)O)[C@@H](C)[C@H](O)[C@H]4N(Cc4ccc(OC)cc4)CC(O)C[N+](C)(C)C)[C@H](O)[C@H]3N(Cc3ccc(OC)cc3)CC(O)C[N+](C)(C)C)[C@@H](COCC(=O)O)O[C@H]2C)cc1 | RCMB 02568 | MIC | broth dilution | 100 µg/mL
C[C@@H]1[C@@H](COCC(=O)O)C[C@@H](O[C@H]2[C@H](O)[C@@H](N(Cc3ccc([N+](=O)[O-])cc3)CC(O)C[N+](C)(C)C)[C@H](O[C@H]3[C@H](O)[C@@H](N(Cc4ccc([N+](=O)[O-])cc4)CC(O)C[N+](C)(C)C)[C@H](C)O[C@@H]3COCC(=O)O)O[C@@H]2COCC(=O)O)[C@H](N(Cc2ccc([N+](=O)[O-])cc2)CC(O)C[N+](C)(C)C)[C@H]1O | RCMB 02568 | MIC | broth dilution | 11.25 µg/mL
Cc1nn([C@H](C)[C@](O)(Cn2cncn2)c2ccc(F)cc2F)c2cccc(F)c12 | ATCC 16424 | MIC80 | - | 16 µg/mL

An empty or dashed field is not shown. Conditions beyond the fields shown may differ between rows.